Values from PubChem BioAssay AID1259414 (Drosophila RNAi Screening Center, 2018).
The deposit covers about 24,000 reagents; this is a random part of those with a known target gene and a result. In the full data, about 1,210 (5%) are marked active. 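Inactive calls also include excluded dsRNAs with several or no targets, genes unexpressed in JW18, and well A1, regardless of score.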 Unmarked entries are inactive. Reagents against one gene are numbered here.

Screen: 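Genome-wide screen for host control of endosymbiont load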 (primary screen)
Cells: Drosophila JW18 cells infected with Wolbachia
Reagents: long dsRNA against Drosophila genes, 0.25 µg dsRNA per well of a 384-well plate
Duration: 5 days
Treatment: cells persistently infected with Wolbachia before knock-down; no added drug
Detection: 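Imaged fluorescence in situ signal for Wolbachia 23S rRNA per DAPI-counted host cell, given as a robust z-score within each plate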
Reading the numbers: Wolbachia per cell robust z: higher = more Wolbachia per host cell than the plate typical
Hit rule: 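Hit when robust z is 1.5 or more, or -1.5 or less, in at least two of three replicates; excludes dsRNAs with several or no targets, genes not expressed in JW18 and well A1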

With knock-down of Hesr, the record shows Wolbachia per cell robust z, rep 1 = -0.874; Wolbachia per cell robust z, rep 2 = -2.27; Wolbachia per cell robust z, rep 3 = -0.902. Depletion of CG13893 resulted in: Wolbachia per cell robust z, rep 1 = -0.356; Wolbachia per cell robust z, rep 2 = -0.492; Wolbachia per cell robust z, rep 3 = 0.803. Depletion of Obp50a #1 came out at: Wolbachia per cell robust z, rep 1 = 0.278; Wolbachia per cell robust z, rep 2 = 0.793; Wolbachia per cell robust z, rep 3 = 0.893. Obp50a #2 gave Wolbachia per cell robust z, rep 1 = 0.773; Wolbachia per cell robust z, rep 2 = 0.207; Wolbachia per cell robust z, rep 3 = 0.337. With knock-down of Obp50a #3 the results were Wolbachia per cell robust z, rep 1 = 0.463; Wolbachia per cell robust z, rep 2 = -0.713; Wolbachia per cell robust z, rep 3 = -1.38. With knock-down of CG10265 #1, the record shows Wolbachia per cell robust z, rep 1 = -2.06 (active); Wolbachia per cell robust z, rep 2 = -1.62; Wolbachia per cell robust z, rep 3 = -0.453.

CG10265 #2 scored Wolbachia per cell robust z, rep 1 = 0.52; Wolbachia per cell robust z, rep 2 = 0.195; Wolbachia per cell robust z, rep 3 = -0.584. Depletion of CG6729 #1 gave: Wolbachia per cell robust z, rep 1 = -1.93; Wolbachia per cell robust z, rep 2 = 1.2; Wolbachia per cell robust z, rep 3 = 0.255. After knock-down of CG6729 #2, the screen gave Wolbachia per cell robust z, rep 1 = 0.477; Wolbachia per cell robust z, rep 2 = -2.61; Wolbachia per cell robust z, rep 3 = -0.767. Depletion of CG6729 #3 came out at: Wolbachia per cell robust z, rep 1 = 0.81; Wolbachia per cell robust z, rep 2 = 0.913; Wolbachia per cell robust z, rep 3 = -3.29. Depletion of Ctf4 resulted in: Wolbachia per cell robust z, rep 1 = -1.27; Wolbachia per cell robust z, rep 2 = 0.185; Wolbachia per cell robust z, rep 3 = -0.43. With knock-down of be #1, the screen gave Wolbachia per cell robust z, rep 1 = 0.646; Wolbachia per cell robust z, rep 2 = 0.572; Wolbachia per cell robust z, rep 3 = -0.348.

With knock-down of be #2, the record shows Wolbachia per cell robust z, rep 1 = -0.867; Wolbachia per cell robust z, rep 2 = -0.891; Wolbachia per cell robust z, rep 3 = -2.42. Knock-down of be #3 resulted in: Wolbachia per cell robust z, rep 1 = -0.34; Wolbachia per cell robust z, rep 2 = -0.113; Wolbachia per cell robust z, rep 3 = -2.08. Depletion of CG5757 gave: Wolbachia per cell robust z, rep 1 = -1.04; Wolbachia per cell robust z, rep 2 = 0.55; Wolbachia per cell robust z, rep 3 = -0.559. Srg1 #1 scored Wolbachia per cell robust z, rep 1 = -1.1; Wolbachia per cell robust z, rep 2 = -0.118; Wolbachia per cell robust z, rep 3 = -0.685. For Srg1 #2, the entry reads Wolbachia per cell robust z, rep 1 = -0.478; Wolbachia per cell robust z, rep 2 = -0.136; Wolbachia per cell robust z, rep 3 = -0.982. Against GAPcenA the deposit lists Wolbachia per cell robust z, rep 1 = -1.44; Wolbachia per cell robust z, rep 2 = -5.57; Wolbachia per cell robust z, rep 3 = 0.298.

CG31533 #1 showed Wolbachia per cell robust z, rep 1 = -1.08; Wolbachia per cell robust z, rep 2 = -0.321; Wolbachia per cell robust z, rep 3 = 0.697. With knock-down of CG31533 #2, the record shows Wolbachia per cell robust z, rep 1 = -3.56; Wolbachia per cell robust z, rep 2 = -2.91; Wolbachia per cell robust z, rep 3 = -1.83. After knock-down of Or59b the results were Wolbachia per cell robust z, rep 1 = -0.323; Wolbachia per cell robust z, rep 2 = 0.266; Wolbachia per cell robust z, rep 3 = 0.0145. Against grk, the entry reads Wolbachia per cell robust z, rep 1 = -1.54; Wolbachia per cell robust z, rep 2 = -0.799; Wolbachia per cell robust z, rep 3 = -0.364. Silencing of CG7755 gave: Wolbachia per cell robust z, rep 1 = -1.16; Wolbachia per cell robust z, rep 2 = -0.0048; Wolbachia per cell robust z, rep 3 = -3.05. Against lectin-46Ca #1, the values are Wolbachia per cell robust z, rep 1 = -0.728; Wolbachia per cell robust z, rep 2 = -4.08; Wolbachia per cell robust z, rep 3 = -1.59.

For lectin-46Ca #2, the entry reads Wolbachia per cell robust z, rep 1 = -0.0596; Wolbachia per cell robust z, rep 2 = 1.14; Wolbachia per cell robust z, rep 3 = 1.02.

2 of these entries, set out differently.
{"target gene":"CG6729","reagent no.":1,"Wolbachia per cell robust z, rep 1":-1.93,"Wolbachia per cell robust z, rep 2":1.2,"Wolbachia per cell robust z, rep 3":0.255}
{"target gene":"CG6729","reagent no.":2,"Wolbachia per cell robust z, rep 1":0.477,"Wolbachia per cell robust z, rep 2":-2.61,"Wolbachia per cell robust z, rep 3":-0.767}
